According to publication PMC4885069, “Botulinum Neurotoxin Serotype A Recognizes Its Protein Receptor SV2 by a Different Mechanism than Botulinum Neurotoxin B Synaptotagmin” (Toxins, 2016):
“And” between values parts separate entries of the source, which are not always exact repeats. Equal entries are not always repeated.

Target: HC-fragment of BoNT/A fused to a C-terminal Streptag (HCAS) (Clostridium botulinum, UniProt P0DPI1 871-1296)

B1: GST-hSV2C 455–579 F563L (domain or fragment)
chain: PDVIKPLQSDEYALLTRNVERDKYANFTINFTMENQIHTGMEYDNGRFIGVKFKSVTFKDSVFKSCTFEDVTSVNTYFKNCTFIDTVFDNTDFEPYKFIDSEFKNCSFLHNKTGCQITFDDDYSA
  Kd: 680 nM and 660 nM
  koff: 0.13 s⁻¹
  kon: 190000 M⁻¹ s⁻¹
